Measured values from several laboratories, pooled; numbers as filed in NIAID ChemDB.

All rows: whole-cell or culture tests; organism: HIV-1; read by: luciferase; measure: EC50

Rows are shuffled and stem from different studies. Blank or dashed fields: not listed here. ECn is the concentration giving n% inhibition of infection, replication or growth. Two numbers with a dash give a range or band.

compound,changes,setting,cells,strain or isolate,value
COc1ccc(N(C)C(=O)[C@H](Cc2ccccc2)NC(=O)c2cc(C(=O)N[C@@H](Cc3ccccc3)C(=O)N(C)c3ccc(OC)cc3)n(C)n2)cc1,,,MT-2,NL4-3,2.13 µM
O=C(C(=O)N1CCN(C(=O)c2ccccn2)CC1)c1c[nH]c2cccc(F)c12,,,HeLa + HELA CD4+/CCR5,,<10 µM
COc1ccc(-n2c(SCC(=O)Nc3ccc(S(N)(=O)=O)cc3Cl)nnc2C(F)(F)F)c2ccccc12,RT-Y188L,,HeLa + HeLa-JC53,NL4-3,0.014 µM
CCCCCC1CN(C(=O)C(=O)c2c[nH]c3c(C(=O)OC)cccc23)CCN1C(=O)c1ccccc1,,,HeLa + HELA CD4+/CCR5,,<10 µM
Cc1cc(CNC(=O)c2nc3n(c(=O)c2O)CC2CCC3(NC(=O)[C@H]3CCN3C(=O)O)CC2)ccc1F,(delta)nef,pseudotyped,MT-2,NL4-3,<0.01 µM
Cc1ccc(-n2c(C)nnc2SCC(=O)Nc2ccccc2I)cc1,RT-K103N Y181C,,HeLa + HeLa-JC53,NL4-3,0.22 µM
CC(C)[C@@H](CO)n1cc(C(=O)O)c(=O)c2nc(Cc3cccc(Cl)c3F)ccc21,,40% human serum,HeLa,,>2.5 µM
Cc1ccc2cccc(-n3c(C)nnc3SCC(=O)Nc3ccc(S(N)(=O)=O)cc3Cl)c2n1,RT-Y188L,,HeLa + HeLa-JC53,NL4-3,0.39 µM
CC1CN(C(=O)C(=O)c2c[nH]c3cccc(F)c23)CC(C)N1C(=O)c1ccccc1,,,HeLa + HELA CD4+/CCR5,,<10 µM
Cc1ccc2c(C)ccc(-n3c(SCC(=O)Nc4ccc(S(N)(=O)=O)cc4Cl)nnc3C(F)(F)F)c2c1,RT-Y188L,,HeLa + HeLa-JC53,NL4-3,0.035 µM
C[C@@H]1CN(C(=O)c2ccccc2)CCN1C(=O)C(=O)c1c[nH]c2cccc(Br)c12,,,HeLa + HELA CD4+/CCR5,,>10 µM
COc1ccc(N(C)C(=O)C(Cc2ccccc2)NC(=O)c2cccc(C(=O)N[C@H](Cc3ccccc3)C(=O)N(C)c3ccc(OC)cc3)c2)cc1,,,MT-2,NL4-3,1.13 µM
Cn1nc(NS(C)(=O)=O)c2c(Cl)ccc(-n3c([C@H](Cc4cc(F)cc(F)c4)NC(=O)Cn4nc(C(F)F)c5c4C(F)(F)[C@@H]4C[C@H]54)nc4nc(-c5cccnc5)ccc4c3=O)c21,,,MT-2,NL4-3,0.000055 µM
CN(C(=O)[C@H](Cc1cc(F)cc(F)c1)NC(=O)NS(=O)(=O)N[C@@H](Cc1cc(F)cc(F)c1)C(=O)N(C)c1ccc2scnc2c1)c1ccc2scnc2c1,,,MT-2,NL4-3,0.03 µM
Cc1ccc2c(C)cccc2c1-n1c(C)nnc1SCC(=O)Nc1ccccc1Br,RT-Y188L,,HeLa + HeLa-JC53,NL4-3,0.33 µM
O=C(NCc1ccc(F)cc1F)c1c(NCCCCc2ccccc2)c2cccnc2n(O)c1=O,N155H,pseudotyped,HOS,,0.166 µM
CCN(CC)C(=O)Oc1ccc2cccnc2c1-c1cccc2cccnc12,,pseudotyped,TZM-bl,HXB2,0.9 µM
O=C1OC(CCl)(c2ccccc2)c2ccccc21,,,TZM-bl,IIIB,15.46 µM
COc1ccc(N(C)C(=O)[C@H](Cc2ccccc2)NC(=O)NS(=O)(=O)N[C@H](Cc2ccccc2)C(=O)N(C)c2ccc(OC)cc2)cc1,,,MT-2,NL4-3,0.47 µM
CN(C)C(=O)C(=O)NC12CCC(CC1)Cn1c2nc(C(=O)NCc2ccccn2)c(O)c1=O,(delta)nef,pseudotyped,MT-2,NL4-3,<0.01 µM
C[C@H]1CN(C(=O)Cn2ccn3c(=O)c(O)c(-c4ncc(Cc5ccc(F)cc5)s4)nc23)C[C@H](C)O1,N155H/E92Q,,HEK 293,,0.1–1 µM
CC(=O)O[C@@H]1C2[C@]3(CC[C@@]45C[C@@]46CC[C@H](OC(=O)c4ccccc4)C(C)(C)[C@@H]6CCC5[C@]3(C)[C@@H]1OC(C)=O)CO[C@@]1(C(C)(C)O)CC[C@]2(C)O1,,,MT-4,NL4-3,>30 µM
COc1ccc(F)c2c(C(=O)C(=O)N3CCN(C(=O)c4ccccc4)C[C@H]3C)c[nH]c12,,,HeLa + HELA CD4+/CCR5,,<10 µM
Cc1nnc(SCC(=O)Nc2ccccc2Br)n1-c1ccc(Cl)c2ccccc12,RT-K103N Y181C,,HeLa + HeLa-JC53,NL4-3,0.13 µM
Cn1nc(NS(C)(=O)=O)c2c(Cl)ccc(-n3c([C@H](Cc4cc(F)cc(F)c4)NC(=O)Cn4nc(C(F)F)c5c4C(F)(F)[C@@H]4C[C@H]54)nc4nc(-c5cc(C(F)(F)F)cc(C(F)(F)F)n5)ccc4c3=O)c21,,,MT-2,NL4-3,0.000025 µM
C[C@@H]1CN(C(=O)c2ccccc2)CCN1C(=O)C(=O)c1c[nH]c2c(C(=O)O)cccc12,,,HeLa + HELA CD4+/CCR5,,<10 µM
C[C@H]1C[C@H](C)CN(C(=O)Cn2ccn3c(=O)c(O)c(-c4ncc(Cc5ccc(F)cc5)s4)nc23)C1,QHGS,,HEK 293,,0.5–1 µM
COc1cnc(-n2cnc(C)n2)c2c1c(C(=O)C(=O)N1CCN(C(=O)c3ccccc3)CC1)cn2COP(=O)(O)O,,,U-87,AD8,0.0024 µM
Cc1cc(-n2c(C)nnc2SCC(=O)Nc2ccccc2Br)c2ccccc2c1C,RT-K103N Y181C,,HeLa + HeLa-JC53,NL4-3,0.031 µM
CC(=O)O[C@H]1[C@@H]2O[C@@]3(C(C)(C)O)CC[C@](C)(O3)C2[C@@]2(CO)CC[C@@]34C[C@@]35CC[C@H](Oc3cc(C)cc(C)c3)C(C)(C)C5CCC4[C@]12C,,,MT-4,NL4-3,1.047 µM
O=C(/C=C/C(F)(F)F)NCCCCN1CCCC2=C[C@@H]3C[C@@H](CN4CCCC[C@H]34)[C@@H]21,,,MT-4,NL4-3,2.55 µM
O=C(NCc1ccc(Cl)c(Cl)c1)c1nc2n(CC(=O)N3CCOCC3)cc(CN3CCOCC3)n2c(=O)c1O,QHGS,,HEK 293,,0.5–1 µM
CN(C)C(=O)C(=O)NC12CCC(CC1)Cn1c2nc(C(=O)NCc2cccnc2)c(O)c1=O,(delta)nef,pseudotyped,MT-2,NL4-3,<0.01 µM
C[C@H]1CN(C(=O)Cn2ccn3c(=O)c(O)c(-c4ncc(Cc5ccc(Cl)c(Cl)c5)s4)nc23)C[C@H](C)O1,,,HEK 293,,0.001–0.1 µM
CC(=O)NC(=S)NC12CCC(CC1)Cn1c2nc(C(=O)NCc2ccc(F)c(C)c2)c(O)c1=O,(delta)nef,pseudotyped,MT-2,NL4-3,<0.01 µM
CN(C(=O)[C@H](Cc1cc(F)cc(F)c1)NC(=O)c1ccc(F)c(C(=O)N[C@@H](Cc2cc(F)cc(F)c2)C(=O)N(C)c2ccc(C3CC3)cc2)c1)c1ccc(C2CC2)cc1,,,MT-2,NL4-3,0.02 µM
COc1cnc(-n2cnc(C)n2)c2[nH]cc(C(=O)C(=O)N3CCN(C(=O)c4ccccc4)CC3)c12,,,U-87,AD8,0.0024 µM
C=C(C)[C@]12C[C@@H](C)[C@]34OC5(CCCCCCC[C@@H](C)[C@@H]([C@H](C)C(=O)O)[C@@H]3C(=O)[C@H](O)[C@@]3(CO)O[C@H]3[C@H]4[C@H]1O5)O2,,,MT-4,NL4-3,9.34 µM
CCCCCCCCCCCCCCCCCC1O[C@@H](CO)[C@H](O)[C@H](O)[C@@H]1O,,,TZM-bl,NL4-3,42.18 µM
COc1ccc(N(C)C(=O)[C@H](Cc2ccccc2)NC(=O)c2cc(Br)cc(C(=O)N[C@@H](Cc3ccccc3)C(=O)N(C)c3ccc(OC)cc3)c2)cc1,,,MT-2,NL4-3,0.21 µM
C=C(C)[C@]12C[C@@H](C)[C@]34OC5(CCCCCCC[C@H](C)[C@@H]([C@H](C)C(=O)O)[C@@H]3C(=O)[C@H](O)[C@@]3(CO)O[C@H]3[C@H]4[C@H]1O5)O2,,,MT-4,NL4-3,9.22 µM
COc1ccc(N(C)C(=O)[C@H](Cc2ccccc2)NC(=O)CCN2CCN(CCC(=O)N[C@@H](Cc3ccccc3)C(=O)N(C)c3ccc(OC)cc3)CC2)cc1,,,MT-2,NL4-3,0.31 µM
C=C[C@H]1[C@H](NC(C)=O)[C@H]1C(=O)NC12CCC(CC1)Cn1c2nc(C(=O)NCc2ccc(F)c(C)c2)c(O)c1=O,(delta)nef,pseudotyped,MT-2,NL4-3,<0.01 µM
CSCc1cn(CC(=O)N2CC(C)CC(C)C2)c2nc(C(=O)NCc3ccc(F)cc3S(=O)(=O)N(C)C)c(O)c(=O)n12,QHGS,,HEK 293,,<0.5 µM
COc1ccc(N(C)C(=O)[C@H](Cc2ccccc2)NC(=O)CCSCCC(=O)N[C@@H](Cc2ccccc2)C(=O)N(C)c2ccc(OC)cc2)cc1,,,MT-2,NL4-3,0.1 µM